Results deposited as PubChem BioAssay AID504761 (Drosophila RNAi Screening Center, 2011).
In all, the deposit lists about 22,000 reagents; this is a random part of those that have a named target and a result. Over the whole deposit, 116 (0.52%) were called active. 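Calls depend on retest data that are not deposited; infection was ranked per plate without normalising between plates; the unit of the infection score is not given.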 Raw values are not corrected between plates. Names joined by + are all predicted targets of the reagent. Reagent sequences are not shown. Not stated in the record: the amount of reagent, the time to read-out.

- Purpose: 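Genome-wide fly cell screen for genes dengue virus requires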 (primary screen)
- System: D.Mel-2 cells from Drosophila
- Reagent: long dsRNA against Drosophila genes
- Treatment: infection with dengue virus type 2; dose and infection time not stated
- Read-out: 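Cells stained for dengue envelope protein and imaged; percent of infected cells per well on duplicate plates, ranked by infection, with stained nuclei counted for cell number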
- Reading the numbers: infection score: higher = more virus-infected cells; cell count: higher = more cells in the well
- Hit rule: 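Low infection ranks in the two replicates (chance level up to 0.065) followed by a retest with a 1.5-fold or larger significant decrease, p below 0.05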
- Calls: active = confirmed: knock-down lowers infection; inactive = not picked or not confirmed

| Target gene | amplicon | infection score, replicate 1 | infection score, replicate 2 | cell count, replicate 1 | cell count, replicate 2 | call |
| --- | --- | --- | --- | --- | --- | --- |
| CG32523 | DRSC20510 | 2.35 | 0.3 | 6292 | 5661 | inactive |
| CG42505 + CG42504 + CG31358 | DRSC15235 | 7.47 | 4.15 | 6763 | 7032 | inactive |
| CG42505 + CG42504 + CG31358 | DRSC15308 | 8.81 | 6.05 | 6461 | 6581 | inactive |
| CG42505 + CG42504 + CG31358 | DRSC15309 | 4.8 | 5.81 | 6499 | 895 | inactive |
| CG31769 | DRSC01361 | 3.04 | 5.34 | 5981 | 5617 | inactive |
| apn | DRSC15124 | 18.4 | 7.78 | 5704 | 6797 | inactive |
| Capa | DRSC15058 | 5.31 | 4.59 | 5936 | 6582 | inactive |
| CG33325 | DRSC12699 | 2.39 | 2.62 | 4681 | 2026 | inactive |
| CG12692 | DRSC17881 | 8.08 | 4.62 | 6127 | 6294 | inactive |
| CG3473 | DRSC01915 | 9.7 | 6.12 | 3618 | 2518 | inactive |
| Ide | DRSC11867 | 0.19 | 2.61 | 521 | 651 | inactive |
| CG13711 | DRSC08320 | 2.86 | 2.17 | 6548 | 6002 | inactive |
| CG13711 | DRSC24101 | 14.1 | 16.5 | 5855 | 5500 | inactive |
| CG34325 | DRSC19802 | 2.02 | 18.9 | 6426 | 6014 | inactive |
| CG34325 | DRSC20200 | 1.86 | 8.24 | 6730 | 6529 | inactive |
| CG13096 | DRSC02198 | 3.91 | 11 | 6495 | 5456 | inactive |
| Neu2 | DRSC11819 | 7.7 | 2.1 | 6353 | 6477 | inactive |
| Neu2 | DRSC26795 | 9.06 | 2.26 | 6555 | 6535 | inactive |
| d4 | DRSC04881 | 10.6 | 34.8 | 6011 | 5294 | inactive |
| d4 | DRSC22674 | 4.14 | 3.19 | 6768 | 6184 | inactive |
| d4 | DRSC26581 | 1.55 | 1.93 | 6259 | 6003 | inactive |
| CG9300 | DRSC11064 | 11.2 | 11.9 | 5795 | 5656 | inactive |
| Ipk2 | DRSC00357 | 18.9 | 6.16 | 5875 | 6364 | inactive |
| Ipk2 | DRSC24511 | 3.03 | 2.87 | 6875 | 6908 | inactive |
| CG17560 | DRSC15242 | 1.14 | 10.5 | 6468 | 6269 | inactive |
| CG15247 | DRSC17976 | 8.3 | 12.1 | 6129 | 5955 | inactive |
| CG15247 | DRSC24221 | 1.77 | 1.7 | 6037 | 6521 | inactive |
| CG15226 (retired record) | DRSC03829 | 4.84 | 1.76 | 5847 | 5925 | inactive |
| CG15226 (retired record) | DRSC04233 | 7.2 | 6.58 | 6402 | 6623 | inactive |
| eIF3h | DRSC01995 | 10.2 | 12.5 | 5602 | 4571 | inactive |
| eIF3h | DRSC27567 | 27.7 | 23.8 | 3602 | 2869 | inactive |
| Ctr9 | DRSC08562 | 13 | 18.4 | 4556 | 3755 | inactive |
| Ctr9 | DRSC27308 | 31.2 | 6.06 | 5517 | 5561 | inactive |
| CG11590 | DRSC19411 | 6.71 | 10.6 | 3948 | 5903 | inactive |
| CG11590 | DRSC28405 | 19.5 | – | 3641 | 366 | inactive |
| CG10802 | DRSC17762 | 1.69 | – | 6226 | 246 | inactive |
| CG10802 | DRSC29607 | 25.6 | 4.38 | 5302 | 1072 | inactive |
| Pglym87 | DRSC15252 | 6.28 | 3.16 | 6589 | 6781 | inactive |
| Pglym87 | DRSC26066 | 3.21 | 3.93 | 6363 | 6412 | inactive |
| Pi3K92E | DRSC16788 | 2.7 | 0.89 | 6525 | 112 | inactive |
| Ubx | DRSC16891 | 1.19 | 1.74 | 6396 | 6721 | inactive |
| Ubx | DRSC23812 | 0.15 | 0.28 | 6075 | 6051 | inactive |
| CG11470 | DRSC14313 | – | 4.31 | 407 | 1044 | inactive |
| Or22b | DRSC00765 | 2.31 | 7.62 | 6240 | 6586 | inactive |
| Cpr64Ab | DRSC08461 | 4.57 | 0.89 | 6045 | 5947 | inactive |
| Cpr64Ab | DRSC25195 | 3.79 | 2.83 | 6126 | 6370 | inactive |
| l(1)10Bb | DRSC20346 | 3.9 | 0.67 | 3003 | 3286 | inactive |
| TppII | DRSC07565 | 3.56 | 2.36 | 6242 | 6597 | inactive |
| Ir7b | DRSC18009 | 4.38 | 0.97 | 5798 | 5672 | inactive |
| CG10375 | DRSC28520 | 16.1 | 5.55 | 5685 | 1730 | inactive |
| Atac2 | DRSC02053 | 6.6 | 26.4 | 6412 | 5618 | inactive |
| CG15160 | DRSC02461 | 14.8 | 3.92 | 5226 | 6192 | inactive |
| CG15160 | DRSC27129 | 13.7 | 6.86 | 6323 | 6020 | inactive |
| natalisin | DRSC14967 | 2.44 | 15.3 | 6397 | 6122 | inactive |
| natalisin | DRSC23390 | 5.13 | 12.1 | 5343 | 5097 | inactive |
| natalisin | DRSC26336 | 9.46 | 7.47 | 5348 | 6173 | inactive |
| CG15408 | DRSC00423 | 3.75 | 7.11 | 6856 | 6452 | inactive |
| vir | DRSC04377 | – | 12.6 | 456 | 1255 | inactive |
| vir | DRSC26525 | 1.48 | 4.56 | 5685 | 5596 | inactive |
| CG10467 + CG10469 | DRSC28645 | 20.6 | 14.6 | 5856 | 6081 | inactive |
| CG11529 | DRSC09839 | 0.51 | 1.62 | 6647 | 6341 | inactive |
| Med | DRSC25769 | 1.1 | 0.26 | 6105 | 6235 | inactive |
| dyl | DRSC08466 | 6.54 | 2.09 | 6376 | 6065 | inactive |
| dyl | DRSC08467 | 3.69 | 5.42 | 6180 | 5846 | inactive |
| dyl | DRSC24188 | 2.67 | 1.18 | 6555 | 6368 | inactive |
| Smyd4-1 | DRSC06785 | 31.4 | 25.1 | 4172 | 5838 | inactive |
| Smyd4-1 | DRSC27142 | 5.05 | 13.6 | 6456 | 6290 | inactive |
| CG13532 | DRSC04174 | 5.08 | 4.59 | 6382 | 6729 | inactive |
| Coq9 | DRSC22913 | 1.34 | 1.59 | 6866 | 6935 | inactive |
| Acp24A4 | DRSC22352 | 1.82 | 4.25 | 6523 | 6773 | inactive |
| Art3 | DRSC16065 | 13.8 | 10.1 | 6378 | 6363 | inactive |
| CG7248 | DRSC10788 | 3.39 | 4.49 | 5897 | 6386 | inactive |
| PGRP-LE | DRSC20137 | 1.49 | 12.9 | 6585 | 6122 | inactive |
| arm | DRSC18738 | 14.7 | 21.2 | 5538 | 1790 | inactive |

Limited to “cell count, replicate 2”, for 6 of the entries above:
CG11590 [DRSC19411]	5903
CG11590 [DRSC28405]	366
CG10802 [DRSC17762]	246
CG10802 [DRSC29607]	1072
Pglym87 [DRSC15252]	6781
Pglym87 [DRSC26066]	6412
